Anti-infective test results gathered from many reports (values: NIAID ChemDB through PubChem).

All rows: growth or infection tests; species: HIV-1; read by: MTT; measure: EC50

ECn: concentration that inhibits the pathogen or its effect by n%. Blank or dashed fields: not listed here. Neighbouring rows are from separate reports.

structure | cells | mutations | strain or isolate | value
C=C1[C@H](CO)[C@@H](O)C[C@@H]1n1cnc2c(=O)[nH]c(N)nc21 | MT-4 | K103N + Y181C | RES056 | 0.034 µM
CN=C(N)NCCCNc1ccc2[nH]ccc2c1 | MT-4 | - | IIIB | >144 µM
Cc1cc(C)c(-n2c(SCC(=O)Nc3ccc(S(N)(=O)=O)cc3Br)nc3ncccc32)c(C)c1 | MT-4 | - | - | 0.21 µM
Cc1cc(C)c(Oc2ccc(N)c(NC3CCN(Cc4ccc(S(C)(=O)=O)cc4)CC3)n2)c(C)c1 | MT-4 | Resistant strain (K103N + Y181C) | IIIB | 5.6 µM
CCOC(=O)C1CN(Cc2ccc(S(N)(=O)=O)cc2)CCC1Nc1nc(Oc2c(C)cc(C#N)cc2C)c2sccc2n1 | MT-4 | - | RES056 | ≥0.918 µM
Cc1cn([C@H]2C[C@H](N=[N+]=[N-])[C@@H](CO)O2)c(=O)[nH]c1=O | MT-4 | - | NL4-3 | 0.056 µM
CC(=O)c1ccc(C)cc1NC(C(N)=O)c1c(Cl)cccc1Cl | MT-4 | - | IIIB | 0.006 µM
c1cc(CNCCCN2CCOCC2)ccc1CNCCCN1CCCC1 | MT-4 | - | - | 4.271 µM
C#Cc1ccc(Nc2nccc(Oc3c(C)cc(-c4cn(Cc5ccc(C#N)cc5)nn4)cc3C)n2)cc1 | MT-4 | E138K | IIIB | 0.56 µM
COc1ccccc1Oc1nc(Nc2ccc(C#N)cc2)nc2ccccc12 | MT-4 | K103N + Y181C | - | >149 µM
Cc1cc(C#N)cc(C)c1Oc1nc(NC2CCC(NCc3ccc(Br)cc3)CC2)nc2ccsc12 | MT-4 | NNRTI-resistant (RT Y188L) | IIIB | >3.45 µM
O=C(CSc1nc2ncccc2n1-c1ccc(C2CC2)c2ccccc12)Nc1ccc(C(=O)O)cc1Cl | MT-4 | - | IIIB | ≥0.22 µM
N=C(CNC(=O)NCCCNc1ccc2[nH]ccc2c1)N[N+](=O)[O-] | MT-4 | - | IIIB | >375 µM
CN1CCN(CCCNCCc2ccc(CCNCCCN3CCN(C)CC3)cc2)CC1 | MT-4 | - | - | >81.02 µM
CC(Sc1nc2ncccc2n1-c1ccc(C2CC2)c2ccccc12)C(=O)Nc1ccc(S(N)(=O)=O)cc1Cl | MT-4 | - | IIIB | 0.15 µM
C#Cc1ccc(Nc2nccc(Oc3c(C)cc(-c4cn(Cc5ccccc5)nn4)cc3C)n2)cc1 | MT-4 | Y181C | IIIB | 1.42 µM
Cc1ccnc2c1NC(=O)c1cccnc1N2C1CC1 | MT-4 | Resistant strain (K103N + Y181C) | IIIB | 5.1 µM
Cc1cc(C#N)cc(C)c1Oc1nc(NC2CCN(Cc3cccc(C(N)=O)c3)CC2)nc2sccc12 | MT-4 | NNRTI-resistant (RT Y188L) | IIIB | 0.017 µM
COC(=O)c1ccc(NC(=O)CSc2nc3ncccc3n2-c2ccc(C3CC3)c3ccccc23)c([N+](=O)[O-])c1 | MT-4 | - | IIIB | 0.27 µM
c1cc2cc(NCCCNC3=NCCCN3)ccc2[nH]1 | MT-4 | - | IIIB | 19.69 µM
O=C(Cc1ccc(CNCCCN2CCCCC2)cc1)NCCCN1CCCCC1 | MT-4 | - | - | 2.539 µM
Cc1cn([C@H]2C[C@H](N=[N+]=[N-])[C@@H](CO)O2)c(=O)[nH]c1=O | MT-4 | NNRTI-resistant (RT K103N) | IIIB | 0.00524 µM
COC(=O)c1ccc(NC(=O)CSc2nc3ncccc3n2-c2ccc(C3CC3)c3ccccc23)c(Br)c1 | MT-4 | - | RES056 | >2.87 µM
CC1CCCCN1CCCNCc1ccc(CNCCCN2CCCCC2C)cc1 | MT-4 | - | - | 0.12 µM
NCCCNc1ccc2[nH]ccc2c1 | MT-4 | - | IIIB | >229 µM
O=C(CSc1nnccc1-c1cccc2ccccc12)Nc1ccccc1[N+](=O)[O-] | MT-4 | - | - | 0.046 µM
Cc1cc(/C=C/C#N)cc(C)c1Oc1nc(Nc2ccc(CN3CCN(S(N)(=O)=O)CC3)cc2)nc2ccsc12 | MT-4 | - | IIIB | 0.007 µM
C#Cc1ccc(Nc2nccc(Oc3c(C)cc(-c4cn(Cc5ccc([N+](=O)[O-])cc5)nn4)cc3C)n2)cc1 | MT-4 | F227L and V106A | IIIB | 33.83 µM
Cc1cc(C#N)cc(C)c1Oc1ccc([N+](=O)[O-])c(NC2CCN(Cc3ccc(S(C)(=O)=O)cc3)CC2)n1 | MT-4 | Resistant strain (K103N + Y181C) | IIIB | >32 µM
CCOC(=O)c1ccc(NC(=O)CSc2nc3ncccc3n2-c2ccc(C3CC3)c3ccccc23)c(Cl)c1 | MT-4 | - | IIIB | 0.73 µM
Cc1cc(C)cc(Cn2cc(/C(O)=C/C(=O)C(=O)O)c3c(O)cccc32)c1 | MT-4 | - | - | 44 µM
CCC(C)(NC(=O)c1ccc(NC(=O)CSc2nc3ncccc3n2-c2ccc(C3CC3)c3ccccc23)c(Cl)c1)C(=O)O | MT-4 | - | IIIB | 1.41 µM
Cc1cn([C@H]2C[C@H](N=[N+]=[N-])[C@@H](COP(=O)(O)O)O2)c(=O)[nH]c1=O | CEMx174 + CEM | - | - | 0.03 µM
O=C(Cc1ccc(CC(=O)NCCCN2CCOCC2)cc1)NCCCN1CCOCC1 | MT-4 | - | - | >280 µM
C#Cc1ccc(Nc2nccc(Oc3c(C)cc(-c4cn(CC(=O)Nc5ccc(S(C)(=O)=O)cc5)nn4)cc3C)n2)cc1 | MT-4 | Y181C | IIIB | >6.36 µM
CCCC(=O)O[C@H]1CN2CC[C@H](O)[C@@H]2[C@@H](O)[C@@H]1O | MT-4 | - | RF | 100 µM
Cc1cc(C#N)cc(C)c1Oc1ccc(N)c(NC2CCN(Cc3ccc(S(C)(=O)=O)cc3)CC2)n1 | MT-4 | - | IIIB | 0.047 µg/mL
NC(=NCCCNc1ccc2[nH]ccc2c1)N[N+](=O)[O-] | MT-4 | - | IIIB | >360 µM

Repeating the first 2 entries:

structure | cells | mutations | strain or isolate | value
C=C1[C@H](CO)[C@@H](O)C[C@@H]1n1cnc2c(=O)[nH]c(N)nc21 | MT-4 | K103N + Y181C | RES056 | 0.034 µM
CN=C(N)NCCCNc1ccc2[nH]ccc2c1 | MT-4 | - | IIIB | >144 µM